From PubChem BioAssay AID720717 (ICCB-Longwood Screening Facility, Harvard Medical School, 2013)
This is a selection; strong and weak results do not stand in their true shares. Active and inactive are the calls of the source.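 The calls were made as follows: active = both repeat wells score below -2 in polarization z-score versus plate sample wells, excluding overly bright wells; inactive = the rest.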

The compounds below were run on LANA (ORF73) N-terminal peptide binding to nucleosomes, Human herpesvirus 8 (assay: LANA N-terminal peptide–nucleosome interaction blockers – biochemical, fluorescence polarization, FITC-LANA1-23, chicken nucleosomes, primary screen (AID 720717)). Settings: FITC-LANA1-23 / chicken nucleosome fluorescence polarization; stronger effect = lower value.
Outline: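 Assay system: FITC-LANA peptide and chicken nucleosomes; input: 240 nM purified chicken nucleosomes (480 nM peptide binding sites), final; also added: 50 nM FITC-LANA1-23 probe; medium: TEN-BT buffer, pH 7.5; doses: pin-transferred compound, 100 nL; times: 10–45 min, room temperature; technique: fluorescence polarization; replication: duplicates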

Structure (SMILES) | z-score
Nc1nonc1-c1no[n+]([O-])c1-c1nonc1N | inactive: -1.14
NC(=O)Nc1ccc([As](=O)(O)O)cc1 | inactive: 0.185
O=P1(Nc2nc3ccc(Cl)cc3s2)COc2ccccc2OC1 | inactive: 0.447
CC1(C)Nc2ccccc2OP1(=O)c1ccccc1 (configuration not stated) | inactive: 1.03
NC(=O)COC(=O)C1(O)c2ccccc2-c2ccccc21 | inactive: -0.438
Nc1nonc1OCCOc1nonc1N | inactive: -0.678
Cc1cc(C)cc(OP(C)(=O)NCc2ccccc2)c1 (configuration not stated) | inactive: -0.172
CP(=O)(Nc1ccc(Cl)cc1)Oc1ccccc1 (configuration not stated) | inactive: -0.131
COc1ccccc1OP(C)(=O)Nc1ccccc1 (configuration not stated) | inactive: -0.201
OCCSCCO | inactive: -0.605
CN(C(=O)Cc1ccc(Cl)c(Cl)c1)[C@H]1CCCC[C@@H]1N1CCCC1 | inactive: -0.172
CCOP(OCC)N1CCOCC1 | inactive: 2.17
O=C(OCCN1CCN(CCOCc2ccccc2)CC1)C(O)(c1ccccc1)c1ccccc1 | inactive: -0.543
O=C(OC1/C(=C/c2ccccc2F)N2CCC1CC2)c1ccccc1 (configuration not stated) | inactive: -0.448
Nc1nonc1OCc1nonc1COc1nonc1N | inactive: -0.073
Cc1ccccc1NP(C)(=O)Nc1ccccc1C | inactive: -0.244
C/C1=C2N=C(/C=C3N=C(/C(C)=C4\[N-][C@@](C)([C@@H]5N=C1[C@](C)(CCC(=O)NC[C@@H](C)OP(=O)([O-])O[C@H]1[C@@H](O)[C@@H](n6cnc7cc(C)c(C)cc76)O[C@@H]1CO)[C@H]5CC(N)=O)[C@@](C)(CC(N)=O)[C@@H]4CCC(N)=O)[C@@](C)(CC(N)=O)[C@@H]\3CCC(N)=O)C(C)(C)[C@@H]/2CCC(N)=O.[C-]#N.[Co+3] | inactive: 0.335
